Compound potency records, mixed from different reports. Data source: NIAID ChemDB in PubChem.

All rows: growth or infection tests; species: Hepatitis C virus; read-out: EC50

ECn is the concentration giving n% inhibition of infection, replication or growth. An empty or dashed field is not shown. Conditions beyond the fields shown may differ between rows. Two numbers with a dash give a range or band.

| smiles | method | strain or isolate | cell line | value |
|---|---|---|---|---|
| NC(=O)c1ncn([C@@H]2O[C@H](CO)[C@@H](O)[C@H]2O)n1 | GFP / fluorescence | J399EM | Huh7.5.1 | >10 µM |
| NC(=O)c1nn(Cc2cccc(NC(=O)c3ccc(F)cc3)c2)c2ccccc12 | fluorescence | J399EM | Huh7.5.1 | 0.013 µM |
| Fc1ccccc1-c1nc2ccn(Cc3ccc(-c4ccc(C(F)(F)F)cc4C(F)(F)F)nn3)cc-2n1 | luciferase | 5a | Huh7 | 0.104 µM |
| Fc1ccccc1-c1nc2ccn(Cc3ccc(-c4ccc(C(F)(F)F)cc4C(F)(F)F)nn3)cc-2n1 | luciferase / replicon | GT3a | Huh7.5 | 2.629 µM |
| C[C@@]1(O)[C@H](O)[C@@H](CO)O[C@H]1n1cnc2c(N)ncnc21 | luciferase | Con1 | 1C | 0.37 µM |
| CN(C)CC(C)(C)CN1c2ccccc2Sc2ccccc21.Cl | PCR | JFH-1 | Huh7-1 | 6.9 µM |
| COc1c(C)c2c(c(O)c1CC(=O)O)C(=O)OC2 | luciferase / replicon | JFH-1 | Huh7.5.1 | 0.468 µM |
| O=C1OC2(c3ccc(O)cc3Oc3cc(O)ccc32)c2c1c(-c1ccccc1)c(-c1ccccc1)c(-c1ccccc1)c2-c1ccccc1 | PCR | sg2a (JFH) | Huh7-1 | 21.1 µM |
| COC(=O)N[C@H](C(=O)N1CCC[C@H]1c1ncc(-c2ccc(-c3ccc(-c4cnc([C@@H]5CCCN5C(=O)[C@@H](NC(=O)OC)C(C)C)[nH]4)cc3)cc2)[nH]1)C(C)C | antigen | HK6a | Huh7.5 | 0.00006 µM |
| CC(C)n1c(/C=C/[C@@H](O)C[C@@H](O)CC(=O)O)c(-c2ccc(F)cc2)c2ccccc21 | luciferase / replicon |  | Huh 9-13 | 4.2 µM |
| CCC[C@H](NC(=O)[C@@H]1[C@H]2CCC[C@H]2CN1C(=O)[C@@H](NC(=O)[C@@H](NC(=O)c1cnccn1)C1CCCCC1)C(C)(C)C)C(=O)C(=O)NC1CC1 | luciferase | 1b A156T |  | >10 µM |
| CCC[C@H](NC(=O)[C@@H]1[C@H]2CCC[C@H]2CN1C(=O)[C@@H](NC(=O)[C@@H](NC(=O)c1cnccn1)C1CCCCC1)C(C)(C)C)C(=O)C(=O)NC1CC1 | antigen | K3a/650 | Huh7.5 | 29.4 µM |
| CC1CCC(C(=O)N(c2cc(C#CC(C)(C)C)sc2C(=O)O)C2CCC(O)CC2)CC1 | luciferase / replicon | GT2a | Huh7 | 3.998 µM |
| NC(=O)c1nn(Cc2ccc(NC(=O)c3ccccc3)cc2)c2ccccc12 | fluorescence | J399EM | Huh7.5.1 | >10 µM |
| N#Cc1c(-c2ccccc2)nc(SCc2nc3ccccc3[nH]2)[nH]c1=O | replicon / PCR |  | Huh7 | 0.345 µM |
| CC(=O)OC1CCC2(C)C(CCC3C2CC(=O)C2(C)C3CC(N3CC3)C2C(C)=O)C1 | PCR | JFH-1 | Huh7-1 | 2.1 µM |
| CC(C)OC(=O)[C@H](C)N[P@](=O)(OC[C@H]1O[C@@](C#N)(c2ccc3c(N)ncnn23)[C@](C)(O)[C@@H]1OC(=O)C(C)C)Oc1ccccc1 | luciferase | 6a HK | Huh7 replicon | 0.11 µM |
| Cc1cc(N2CCCCC2)nc2ccc(Cc3ccc4nc(N5CCCCC5)cc(C)c4c3)cc12 | PCR | JFH-1 | Huh7-1 | 0.4 µM |
| COc1ccc(C(=O)Nc2cccc(Cn3nc(C(N)=O)c4ccccc43)c2)cc1 | luciferase / replicon | JFH-1 | Huh7.5.1 | 0.056 µM |
| COC(=O)N[C@H](C(=O)N1CCC[C@H]1c1ncc(-c2ccc(-c3ccc(-c4cnc([C@@H]5CCCN5C(=O)[C@@H](NC(=O)OC)C(C)C)[nH]4)cc3)cc2)[nH]1)C(C)C | luciferase | Con1 | 1C | 0.0000029 µM |
| ClCc1nc2ccccc2[nH]1 | replicon / PCR |  | Huh7 | 0.25 µM |
| C[C@@]1(O)[C@H](O)[C@@H](CO)O[C@H]1c1ccc2c(N)ncnn12 | PCR | GT6a | Huh7.5 | 1 µM |
| NC(=O)c1nn(Cc2cccc(N)c2)c2ccccc12 | fluorescence | J399EM | Huh7.5.1 | 5–10 µM |
| CC(=O)Nc1ccc(-c2ccc(Cl)cc2)c(COc2ccc(-c3nc4cc(C(=O)O)ccc4n3C3CCCCC3)cc2)c1 | luciferase | 6a | Huh7 | 1.343 µM |
| CC(=O)O[C@@H]1[C@H](OC(C)=O)[C@@H](OC(C)=O)C=C2c3cc4c(cc3C(=O)N[C@H]21)OCO4 | antigen / microscopy | Synthesized HCV RNA | Huh7.5 | >0.98 µM |
| CS(=O)(=O)Nc1ccc2c(c1)S(=O)(=O)N=C(C1=C(O)[C@@H]3[C@H]4CC[C@H](C4)[C@@H]3N(Cc3ccc(F)cc3)C1=O)N2 | luciferase / replicon | GT3a | Huh7.5 | 26.06 µM |
| CCC[C@H](NC(=O)[C@@H]1[C@H]2CCC[C@H]2CN1C(=O)[C@@H](NC(=O)[C@@H](NC(=O)c1cnccn1)C1CCCCC1)C(C)(C)C)C(=O)C(=O)NC1CC1 | luciferase / reporter gene | genotype 1b | Huh7.5 | 0.1273 µM |
| O=C(O)c1c(-c2ccc(Cl)cc2)nc(SCc2nc3ccccc3[nH]2)[nH]c1=O | replicon / PCR |  | Huh7 | 0.356 µM |
| C[C@@]1(O)[C@H](O)[C@@H](CO)O[C@H]1n1cnc2c(N)ncnc21 | luciferase | GT1b | Huh7-Lunet | 0.206 µM |
| N#Cc1c(-c2ccccc2O)nc(SCc2nc3ccccc3[nH]2)[nH]c1=O | replicon / PCR |  | Huh7 | 0.145 µM |
| CC1CCC(C(=O)N(c2cc(C#CC(C)(C)C)sc2C(=O)O)C2CCC(O)CC2)CC1 | luciferase | GT2a (JFH1) | Huh7-Lunet | 13.9 µM |
| NC(=O)c1nn(Cc2cccc(NC(=O)c3ccc([N+](=O)[O-])cc3)c2)c2ccccc12 | fluorescence | J399EM | Huh7.5.1 | 0.007 µM |
| O=C(O)c1cccc([As]=[As]c2cccc(C(=O)O)c2)c1 | PCR | sg1a (H77) | Huh7-1 | 1.9 µM |
| C[C@@]1(O)[C@H](O)[C@@H](CO)O[C@H]1n1cnc2c(N)ncnc21 | luciferase | 2b | Huh7 | 0.2935 µM |

5 of the rows above, restated:

smiles	method	strain or isolate	cell line	value
ClCc1nc2ccccc2[nH]1	replicon / PCR		Huh7	0.25 µM
Cc1cc(N2CCCCC2)nc2ccc(Cc3ccc4nc(N5CCCCC5)cc(C)c4c3)cc12	PCR	JFH-1	Huh7-1	0.4 µM
CN(C)CC(C)(C)CN1c2ccccc2Sc2ccccc21.Cl	PCR	JFH-1	Huh7-1	6.9 µM
CC1CCC(C(=O)N(c2cc(C#CC(C)(C)C)sc2C(=O)O)C2CCC(O)CC2)CC1	luciferase / replicon	GT2a	Huh7	3.998 µM
O=C(O)c1cccc([As]=[As]c2cccc(C(=O)O)c2)c1	PCR	sg1a (H77)	Huh7-1	1.9 µM